The values that follow come from paper PMC8828479, “Broadly neutralizing antibodies target a haemagglutinin anchor epitope” (Nature, 2021).

In this test the target is H2 HA (A/Singapore/1/1957) (Influenza A virus A/Singapore/1/1957 …, UniProt Q67333). Description: negative-stain EM; […] 2D class averages and 3D reconstructions. The conditions noted are these: both partners purified.

B1: 222-1C06 Fab (Fab, V domains shown)
VH: EVQLVESGGDLVQPGGSLRLSCVVSGFTFSTYSMNWVRQAPGKGLEWVSYISSSSLSRYYADSVKGRFTISRDNAKNSLSLQLNSLRAEDTAVYYCVRGSITWPTEYYLDYWGQGTLVTVSS
VL: EIVMTQSPATLSVSPGERATLSCRASQTIRSDLAWYQQKPGQPPRLIIYGASTRATGIPARFSGSGSGTEFTLTISSLQSEDSAVYFCQQYNNWPPLTFGGGTKVEIK
For B1, the binding result is on record as “binds”.
